Compound potency records, mixed from different reports. Data source: NIAID ChemDB in PubChem.

Shared fields: growth or infection tests; organism: Candida albicans; endpoint: MIC

Two numbers with a dash give a range or band.

structure	strain	result
COC(=O)[C@]1(C)CCC[C@@]2(C)[C@@H]3CC[C@@H]4C[C@@]3(CC[C@@H]21)C[C@@H]4C	UBC1	>50 µg/mL
COc1cc(/C=C2\C=C(c3ccc(Oc4ccccc4)cc3)OC2=O)ccc1OC(C)=O		>100 µg/mL
Oc1ccc(C=Nc2ccc(N3CCOCC3)cc2)cc1	ATCC 2091	24 µg/mL
O=C(/C=C/c1cc(O)ccc1O)c1ccccc1	SDAU6	100 µg/mL
Cn1ccnc1S(C)(=O)=O		>200 µg/mL
Nc1ccc(NC(=O)c2ccc(Br)cc2)c(O)c1	ATCC 10231	125 µg/mL
C=C1CCC2[C@](C)(CO)CCC[C@]2(C)[C@H]1CC/C(C)=C\C(=O)OC	UBC1	>50 µg/mL
CN(C)CCSC(=S)NCc1ccc(C(C)(C)C)cc1		1 µg/mL
O=C1/C(=C/c2cccs2)C=C(c2ccc(Oc3ccccc3)cc2)N1Cc1ccccc1		25 µg/mL
c1ccc2cc(CC3=NCCS3)ccc2c1		7 µg/mL
CSc1nccn1C		>200 µg/mL
COc1cc2ccnc3c2c(c1OC(=O)c1ccc(C(C)(C)C)cc1)N(C)C=C3		10 µg/mL
Nc1ccc(O)c(NC(=O)c2ccccc2)c1	ATCC 10231	31.25 µg/mL
Cn1c([N+](=O)[O-])cnc1S(C)(=O)=O		>200 µg/mL
NC(=NC1CCCC1)c1ccc(-c2ccc(-c3ccc(C(N)=NC4CCCC4)cc3)o2)cc1	Isolate CA1247	25 µg/mL
C(=C/c1cc2ccccc2o1)/C1=NCCS1		52 µg/mL
NCCSC(=S)NCc1ccccc1		20 µg/mL
CCCCCCCCOc1ccc(C(=O)NC2C[C@@H](O)[C@@H](O)NC(=O)C3[C@@H](O)[C@@H](C)CN3C(=O)C(C(C)O)NC(=O)C([C@H](O)[C@@H](O)c3ccc(O)cc3)NC(=O)C3C[C@@H](O)CN3C(=O)C(C(C)O)NC2=O)cc1	MY1208	1 µg/mL
Oc1ccccc1C=Nc1ccc(N2CCOCC2)cc1	ATCC 2091	28 µg/mL
O=C1NC(c2ccc(Oc3ccccc3)cc2)=C/C1=C\c1cccc(O)c1		>100 µg/mL
CN(C)CCSC(=S)NCc1cccc(Cl)c1		15 µg/mL
O=C1NC(c2ccc(Oc3ccccc3)cc2)=C/C1=C\c1cccc([N+](=O)[O-])c1		10 µg/mL
CC1C=C(c2ccc(Cl)c(Cl)c2)C(=O)O1	ATCC 44859	>125 µM
CN(CCCC#CC(C)(C)C)c1cccc2c1CCC(=O)N2	Clinical isolate 9	31.25 µg/mL
CCC1C=C(c2ccc(Br)cc2)C(=O)O1	ATCC 44859	125 µM
CC1=C2Cc3cc(ccc3O)C(=O)O[C@H]3CC[C@@](C)(OC3(C)C)[C@H](Br)CC[C@]2(C)[C@@H](Br)CC1		>90 µM
COCCOCCOCCOCCOCCOCCNC(=O)[C@H]1[C@@H]2C[C@@H](O[C@@H]3O[C@H](C)[C@@H](O)[C@H](N)[C@@H]3O)/C=C/C=C/C=C/C=C/C=C/C=C/C=C/[C@H](C)[C@@H](O)[C@H](C)[C@H](C)OC(=O)C[C@H](O)C[C@H](O)[C@@H](O)CC[C@H](O)C[C@H](O)C[C@](O)(C[C@@H]1O)O2	Isolate 92-1729	3.03 µg/mL
CC1C=C(c2ccccc2)C(=O)O1	ATCC 44859	>125 µM
CN1CCN(CCSC(=S)NCc2ccc(Cl)cc2)CC1		1000 µg/mL
O=C(/C=C/c1ccc(O)cc1O)c1ccccc1	SDAU3	75 µg/mL
CCc1ccc(C(=O)Nc2cc(N)ccc2O)cc1	ATCC 10231	15.6 µg/mL
C[C@@H](CC1COC(/C=C/C=C/c2ccc(C#N)cc2F)OC1)[C@](O)(Cn1cncn1)c1ccc(F)cc1F	TIMM3165	0.125–0.25 µg/mL
Cn1c([N+](=O)[O-])cnc1S(C)=O		>200 µg/mL
CCOc1cc2c(cc1F)n([O-])c(C)c(S(=O)(=O)c1ccccc1)[n+]2=O	Clinical isolate 22	15.6 µg/mL
CC1C=C(c2cccc3ccccc23)C(=O)O1	ATCC 44859	31.25 µM
CCN(CC)CCSC(=S)NCc1cc(C)ccc1C		100 µg/mL
CC1C=C(c2ccc(Br)c(Br)c2)C(=O)O1	ATCC 44859	31.25 µM
Clc1ccc(CC2=NCCS2)cc1		36 µg/mL
C=C1CCC2[C@](C)(C(=O)O)CCC[C@]2(C)[C@@H]1CCCC(C)CC(=O)O	UBC1	>50 µg/mL
Cc1c(S(=O)(=O)c2ccccc2)[n+](=O)c2ccccc2n1[O-]	Clinical isolate 7	15.6 µg/mL
CSC1=C(Nc2ccc(O)cc2)C(=O)c2cccnc2C1=O	ATCC 10231	25 µg/mL
O=C(Nc1cc([N+](=O)[O-])ccc1O)c1ccc(F)cc1	ATCC 10231	7.8 µg/mL
CCC(C)CC(C)CCCCCCCCC(=O)N[C@H]1C[C@@H](O)[C@H](NCCN)NC(=O)[C@@H]2[C@@H](O)CCN2C(=O)[C@H]([C@H](O)CCN)NC(=O)[C@H]([C@H](O)[C@@H](O)c2ccc(O)cc2)NC(=O)[C@@H]2C[C@@H](O)CN2C(=O)[C@H]([C@@H](C)O)NC1=O	3 isolates	0.27 µg/mL
O=C(Nc1cc([N+](=O)[O-])ccc1O)c1ccccc1	ATCC 10231	31.25 µg/mL
O=[N+]([O-])c1ccc(/C=C\C2=NCCS2)cc1		42 µg/mL
CCCCCOc1ccc(-c2cc(-c3ccc(C(=O)N[C@H]4C[C@@H](O)[C@@H](O)NC(=O)[C@@H]5[C@@H](O)[C@@H](C)CN5C(=O)[C@H]([C@H](O)CC(N)=O)NC(=O)[C@H]([C@H](O)[C@@H](O)c5ccc(O)c(OS(=O)(=O)O)c5)NC(=O)[C@@H]5C[C@@H](O)CN5C(=O)[C@H]([C@@H](C)O)NC4=O)cc3)no2)cc1	3 strains	≤0.0078 µg/mL
C(/C=C/c1ccccc1)=Nc1ccc(N2CCOCC2)cc1	ATCC 2091	28 µg/mL
Cc1c(S(=O)(=O)c2ccccc2)[n+](=O)c2cc(Cl)ccc2n1[O-]	Clinical isolate 4	15.6 µg/mL
C=C(C)[C@@H]1CCC(C)(O)[C@H](Br)CC[C@@]2(C)[C@H](Cc3cc(ccc3O)C(=O)O1)C(C)=CC[C@@H]2Br		44 µM
CN(C)CCSC(=S)NCc1ccc(Cl)cc1		40 µg/mL
CCCCCc1ccc(C(=O)Oc2c(OC)cc3ccnc4c3c2N(C)C=C4)cc1		10 µg/mL
O=C(Cc1ccc(F)cc1)Nc1cc([N+](=O)[O-])ccc1O	ATCC 10231	31.25 µg/mL
C[C@H]1[C@H](O)[C@@H](C)/C=C/C=C/C=C/C=C/C=C/C=C/C=C/[C@H](O[C@@H]2O[C@H](C)[C@@H](O)[C@H](N)[C@@H]2O)C[C@@H]2O[C@](O)(C[C@@H](O)C[C@@H](O)CC[C@H](O)[C@@H](O)C[C@@H](O)CC(=O)O[C@H]1C)C[C@H](O)[C@H]2C(=O)O	3 strains	0.5 µg/mL
CCOc1ccc(NC2=C(SC)C(=O)c3ncccc3C2=O)cc1	ATCC 10231	6.3 µg/mL
Cc1ccc(CC(=O)Nc2ccc(N)cc2O)cc1	Isolates	250 µg/mL
CCCCCCCCCCNCCSC(=S)NCc1ccccc1		1000 µg/mL
O=C1NC(c2ccc(Oc3ccccc3)cc2)=C/C1=C\c1ccccc1		50 µg/mL
c1ccc2c(CC3=NCCS3)cccc2c1		46 µg/mL
O=[N+]([O-])c1cccc(C=Nc2ccc(N3CCOCC3)cc2)c1	ATCC 2091	36 µg/mL
C[C@@H]1CCC2(OC1)OC1CC3C4C[C@H](O)[C@H]5C[C@@H](O)CC[C@]5(C)C4CC(=O)[C@]3(C)C1[C@@H]2C	ATCC 90028	10 µg/mL
CSC1=C(Nc2cc(C(F)(F)F)cc(C(F)(F)F)c2Br)C(=O)c2cccnc2C1=O	ATCC 10231	50 µg/mL
CN1CCC[C@H]1CCCCCCCCCc1ccccc1	IP4872	25 µg/mL
CSC1=C(Nc2ccc(CCCC(=O)O)cc2)C(=O)c2cccnc2C1=O	ATCC 10231	25 µg/mL
CCc1ccc(C(=O)Nc2ccc([N+](=O)[O-])cc2O)cc1	ATCC 10231	62.5 µg/mL
C=C(C)[C@@H]1CCC(C)(O)[C@H](Br)CC[C@@]2(C)C(=C(C)CC[C@@H]2Br)Cc2cc(ccc2O)C(=O)O1		>90 µM
CCCCCCCCCCCCCCCCCC(=O)NC1CC(O)C(O)NC(=O)C2C(O)C(C)CN2C(=O)C(C(C)O)NC(=O)C(C(O)C(O)c2ccc(O)cc2)NC(=O)C2CC(O)CN2C(=O)C(C(C)O)NC1=O	MY1028	1 µg/mL

The last 9 rows once more:

structure,strain,result
c1ccc2c(CC3=NCCS3)cccc2c1,,46 µg/mL
O=[N+]([O-])c1cccc(C=Nc2ccc(N3CCOCC3)cc2)c1,ATCC 2091,36 µg/mL
C[C@@H]1CCC2(OC1)OC1CC3C4C[C@H](O)[C@H]5C[C@@H](O)CC[C@]5(C)C4CC(=O)[C@]3(C)C1[C@@H]2C,ATCC 90028,10 µg/mL
CSC1=C(Nc2cc(C(F)(F)F)cc(C(F)(F)F)c2Br)C(=O)c2cccnc2C1=O,ATCC 10231,50 µg/mL
CN1CCC[C@H]1CCCCCCCCCc1ccccc1,IP4872,25 µg/mL
CSC1=C(Nc2ccc(CCCC(=O)O)cc2)C(=O)c2cccnc2C1=O,ATCC 10231,25 µg/mL
CCc1ccc(C(=O)Nc2ccc([N+](=O)[O-])cc2O)cc1,ATCC 10231,62.5 µg/mL
C=C(C)[C@@H]1CCC(C)(O)[C@H](Br)CC[C@@]2(C)C(=C(C)CC[C@@H]2Br)Cc2cc(ccc2O)C(=O)O1,,>90 µM
CCCCCCCCCCCCCCCCCC(=O)NC1CC(O)C(O)NC(=O)C2C(O)C(C)CN2C(=O)C(C(C)O)NC(=O)C(C(O)C(O)c2ccc(O)cc2)NC(=O)C2CC(O)CN2C(=O)C(C(C)O)NC1=O,MY1028,1 µg/mL

Lines come from different laboratories, so protocols vary. Blank or dashed fields: not listed here.